Laboratory results: PubChem BioAssay AID504761 (Drosophila RNAi Screening Center, 2011)

Assay: 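Genome-wide fly cell screen for genes dengue virus requires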 (primary screen)
Cell system: D.Mel-2 cells from Drosophila
Reagent: long dsRNA against Drosophila genes
Conditions: infection with dengue virus type 2; dose and infection time not stated
Read-out: 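Per well on two replicate plates, imaging gave the percent of cells positive for viral envelope protein, ranked by infection, and a nuclear count of cells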
Scale: infection score: higher = more virus-infected cells; cell count: higher = more cells in the well
Active means: 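Very low infection ranking in both replicate wells (chance probability at most 0.065), then a retest showing infection dropped 1.5-fold or more at p below 0.05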
Calls: active = confirmed: knock-down lowers infection; inactive = not picked or not confirmed
The screen tested about 22,000 reagents; below is a random part of those with a known target gene and a result. In the full data, 116 (0.52%) are marked active. 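Calls depend on retest data that are not deposited; infection was ranked per plate without normalising between plates; the unit of the infection score is not given.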 Raw values vary from plate to plate and are shown uncorrected. A number with no mark means an inactive call. A plus sign joins genes that one reagent is predicted to hit. Not all columns of the deposit are shown. Not stated in the record: the amount of reagent, the time to read-out.

Gr61a (Gustatory receptor 61a) [DRSC08358] | infection score, replicate 1 = 4.3; cell count, replicate 1 = 5925
CG1958 [DRSC18196] | cell count, replicate 1 = 701
CG1958 [DRSC25599] | infection score, replicate 1 = 3.87; cell count, replicate 1 = 6593
rdhB (retinol dehydrogenase B) [DRSC16190] | infection score, replicate 1 = 6.06; cell count, replicate 1 = 6685
Mics1 (Mitochondrial morphology and cristae structure 1) [DRSC12537] | infection score, replicate 1 = 5.27; cell count, replicate 1 = 6548
CG15483 [DRSC02493] | infection score, replicate 1 = 0.86; cell count, replicate 1 = 700
CG18585 [DRSC02678] | infection score, replicate 1 = 6.43; cell count, replicate 1 = 6438
He + NimB5 [DRSC22876] | infection score, replicate 1 = 1.72; cell count, replicate 1 = 6160
CG4592 [DRSC02761] | infection score, replicate 1 = 12.3; cell count, replicate 1 = 6288
CG15366 (retired record) [DRSC18039] | infection score, replicate 1 = 21; cell count, replicate 1 = 6066
Cep164 (centrosomal protein 164) [DRSC20163] | infection score, replicate 1 = 0.96; cell count, replicate 1 = 521
Cyp317a1 (Cytochrome P450 317a1) [DRSC07366] | infection score, replicate 1 = 13.2; cell count, replicate 1 = 3743
vrs (versager) [DRSC15832] | infection score, replicate 1 = 1.83; cell count, replicate 1 = 6244
vrs (versager) [DRSC26261] | infection score, replicate 1 = 4.73; cell count, replicate 1 = 4888
RpS27A (Ribosomal protein S27A) [DRSC03421] | infection score, replicate 1 = 19.6; cell count, replicate 1 = 5190
RpS27A (Ribosomal protein S27A) [DRSC30047] | infection score, replicate 1 = 19.1; cell count, replicate 1 = 2282
CG12104 [DRSC08254] | infection score, replicate 1 = 6.24; cell count, replicate 1 = 6302
CG12104 [DRSC26773] | infection score, replicate 1 = 3.86; cell count, replicate 1 = 6262
CG11601 [DRSC00318] | infection score, replicate 1 = 10.5; cell count, replicate 1 = 6411
RhoGAP18B (Rho GTPase activating protein at 18B) [DRSC19763] | infection score, replicate 1 = 5.7; cell count, replicate 1 = 5495
RhoGAP18B (Rho GTPase activating protein at 18B) [DRSC20047] | infection score, replicate 1 = 4.11; cell count, replicate 1 = 5498
RhoGAP18B (Rho GTPase activating protein at 18B) [DRSC20048] | infection score, replicate 1 = 3.1; cell count, replicate 1 = 4673
RhoGAP18B (Rho GTPase activating protein at 18B) [DRSC20049] | infection score, replicate 1 = 8.1; cell count, replicate 1 = 5862
RhoGAP18B (Rho GTPase activating protein at 18B) [DRSC25093] | infection score, replicate 1 = 2.58; cell count, replicate 1 = 6520
GV1 [DRSC08228] | infection score, replicate 1 = 5.56; cell count, replicate 1 = 5940
GV1 [DRSC25953] | infection score, replicate 1 = 4.33; cell count, replicate 1 = 5815
CG17328 [DRSC01927] | infection score, replicate 1 = 7.82; cell count, replicate 1 = 5180
CG17328 [DRSC22448] | infection score, replicate 1 = 2.72; cell count, replicate 1 = 6139
CG17328 [DRSC25397] | infection score, replicate 1 = 1.92; cell count, replicate 1 = 6152

Looked up above:
For “infection score, replicate 1”, vrs (versager) [DRSC15832] reads 1.83
CG4592 [DRSC02761], cell count, replicate 1: 6288
